Results of unrelated studies side by side (data: NIAID ChemDB).

All rows: growth or infection tests; agent: HIV-1

ECn: concentration that inhibits the pathogen or its effect by n%. a–b is a range or a potency band. An empty or dashed field is not shown. Conditions beyond the fields shown may differ between rows.

SMILES | read by | measure | cell line | strain | mutations | result
Nc1nc2c(ncn2[C@H]2CO[C@@H](CO)O2)c(=O)[nH]1 |  | EC50 | PBMC | Wild-type isolates |  | 0.03–0.29 µM
O=C1CC(c2ccccc2)Oc2ccccc21 |  | EC50 |  |  |  | >20 µM
OC[C@H]1O[C@@H](n2cnc3c2NC=NC[C@H]3O)C[C@@H]1O | cytopathic effect | EC50 | ATH8 |  |  | >0.02 µM
C[C@@H]1CCCC[C@H]1Oc1cc(CCc2ccccc2)[nH]c(=O)c1I | ELISA | EC50 | TZM-bl | A17 |  | 0.543 µM
COC(=O)[C@H](C)NP(=O)(OC[C@@H]1C=C[C@H](n2cnc3c(N)ncnc32)O1)Oc1ccccc1 | antigen | EC90 | MM + M/M | BaL |  | 0.03 µM
Cc1ccnc2c1NC(=O)c1cccnc1N2C1CC1 | luminescence | EC50 | CD4+ T-cell |  |  | >40.5 µM
O=C(OC1OC2COC(=O)c3cc(O)c(O)c(O)c3-c3c(cc(O)c(O)c3O)C(=O)OC2C(OC(=O)c2cc(O)c(O)c(O)c2)C1OC(=O)c1cc(O)c(O)c(O)c1)c1cc(O)c(O)c(Oc2c(C(=O)O)cc(O)c(O)c2O)c1 | cytopathic effect / MTT | EC50 | MT-4 | IIIB |  | >50 µg/mL
CCCNc1n[nH]c2ccc(CN3C(=O)N(Cc4ccc5[nH]nc(NCCC)c5c4)[C@H](Cc4ccccc4)[C@H](O)[C@@H](O)[C@H]3Cc3ccccc3)cc12 |  | EC50 | MT-2 | RF |  | <0.04 µM
CN(C)C(=O)Oc1nsnc1-c1c(Cl)cccc1Cl | cytopathic effect / MTT | EC50 | MT-4 | IIIB-R (RT-Y181C) | RT-Y181C | >190 µM
O=c1[nH]cnc2c1ncn2[C@H]1CC[C@@H](CO)O1 | plaque count | EC50 | HELA/CD4 + HELA CD4+ | HXB2 |  | 3.18 µM
Nc1ccn([C@H]2CC[C@@H](CO)O2)c(=O)n1 | cytopathic effect | EC50 | CEM + CEM-SS | IIIB |  | 0.0693 µM
CN(C)C(=O)Oc1nsnc1-c1ccccc1Cl | cytopathic effect / MTT | EC50 | MT-4 | IIIB |  | 0.44 µM
Cc1cc(C)c(Nc2ccc([N+](=O)[O-])c(NC3CCN(Cc4ccc(C(N)=O)cc4)CC3)n2)c(C)c1 | MTT | EC50 | MT-4 | IIIB |  | 0.0096 µg/mL
Nc1n[nH]c2ccc(CN3C(=O)N(Cc4ccc5ccccc5c4)[C@H](Cc4ccccc4)[C@H](O)[C@@H](O)[C@H]3Cc3ccccc3)cc12 |  | EC50 | MT-2 | RF |  | <0.023 µM
Cc1cn([C@H]2C[C@@H](N=[N+]=[N-])[C@@H](CO)O2)c(=O)[nH]c1=O | MTT | EC50 | MT-4 | IIIB | Resistant strain (K103N + Y181C) | 0.0063 µM
Nc1nc(N)c2ncn([C@H]3CO[C@@H](CO)O3)c2n1 |  | EC50 | PBMC | LAI |  | 2.1 µM
CCN(C)C(=O)Oc1nsnc1-c1c(Cl)cccc1Cl | cytopathic effect / MTT | EC50 | MT-4 | IIIB |  | 0.037 µM
OC[C@H]1NC[C@H](O)[C@@H](O)[C@@H]1O | cell fusion | EC50 | MOLT-4 | IIIB |  | 50 µg/mL
CN1C/C(=C\c2cc(O)c(O)c(O)c2)C(=O)/C(=C/c2cc(O)c(O)c(O)c2)C1 | cytopathic effect / MTT | EC50 | MT-4 |  |  | >46 µM
Nc1nc(=O)n([C@H]2CS[C@@H](CO)O2)cc1F | cytopathic effect / MTT | EC50 | MT-4 | RF | RT-M184I | 7.07 µM
CCCCNC(=O)Oc1nsnc1-c1c(Cl)cccc1Cl | cytopathic effect / MTT | EC50 | MT-4 | IIIB |  | >139 µM
COC(=O)[C@H](C)NP(=O)(OC[C@@H]1O[C@H](n2ccc(N)nc2=O)CS1)Oc1ccccc1 | antigen | EC50 | MM + M/M | BaL |  | 0.032 µM
CC(C)=CCOc1cc(Nc2nccc3cc[nH]c23)ccc1Cl | cytopathic effect / MTT | EC50 | MT-2 | IIIB |  | 0.09 µM
O=C1/C(=C/c2cc(O)c(O)c(O)c2)COC/C1=C\c1cc(O)c(O)c(O)c1 | cytopathic effect / MTT | EC50 | MT-4 |  |  | 34 µM
COC(=O)[C@H](C)NP(=O)(OC[C@H]1O[C@@H](n2cc(C)c(=O)[nH]c2=O)C[C@@H]1N=[N+]=[N-])Oc1ccccc1 | antigen | EC90 | MM + M/M | BaL |  | 0.1 µM
Cc1cc(C)c(Oc2ccc(N)c(NC3CCN(Cc4ccc(S(C)(=O)=O)cc4)CC3)n2)c(C)c1 | MTT | EC50 | MT-4 | IIIB | Resistant strain (K103N + Y181C) | 5.6 µM
CCOCn1c(Cc2ccccc2)c(C(C)C)c(=O)[nH]c1=O | cytopathic effect / MTT | EC50 | MT-4 | IIIB | RT-K103N Y181C | >100 µM
CC(=O)OC(C)(C)/C=C/C(=O)[C@](C)(O)[C@H]1[C@H](O)C[C@@]2(C)C3CC=C4C(C[C@H](O)C(=O)C4(C)C)[C@]3(C)C(=O)C[C@]12C | syncytia | EC50 |  | C8166 |  | 4.2 µg/mL
Cc1cc(C)c(Nc2ccc([N+](=O)[O-])c(NC3CCN(Cc4ccncc4)CC3)n2)c(C)c1 | MTT | EC50 | MT-4 | IIIB |  | 0.01 µg/mL
Nc1ncnc2c1ncn2CCOCP(=O)(O)O | RT activity | EC50 | PBMC | LAI |  | 4.4 µM
COC(=O)C(C(=O)OC)=C1NC(=O)N([C@H]2C=C[C@@H](CO)O2)C=C1C |  | EC50 | C8166 |  |  | >50 µM
Cc1ccnc2c1NC(=O)c1cccnc1N2C1CC1 | syncytia | EC50 | C8166 | IIIB |  | 0.0372 µM
CCOP(=O)(CO[C@H]1C[C@@H](n2cnc3c(N)nc(F)nc32)C(F)(F)C1)OCC | RT activity | EC90 | PBMC | LAI |  | 95 µM
Cc1cn([C@H]2C=C[C@@H](CO)O2)c(=O)[nH]c1=O | antigen | EC50 | MM + M/M | BaL |  | 0.2 µM
CCN1C/C(=C\c2ccc(O)c([N+](=O)[O-])c2)C(=O)/C(=C/c2ccc(O)c([N+](=O)[O-])c2)C1 | cytopathic effect / MTT | EC50 | MT-4 |  |  | >15 µM
CC[C@H](C)C(=O)O[C@H]1C[C@@H](C)C=C2C=C[C@H](C)[C@H](CC[C@@H]3C[C@@H](O)CC(=O)O3)[C@H]21 | p24 | EC50 | PBMC | 92RW009 R5X4 clinical variant |  | <50 µM
CCOC(=O)C1C/C(=C\c2ccc(O)c(O)c2)C(=O)/C(=C/c2ccc(O)c(O)c2)C1 | cytopathic effect / MTT | EC50 | MT-4 |  |  | >5 µM
Nc1nc(=O)n([C@@H]2C[Se][C@H](CO)O2)cc1F | RT activity | EC90 | PBMC | BRU(RT-M184V) | RT-M184V | >50 µM
CCOC(=O)c1cc(O)c(O)c(O)c1 | cytopathic effect / MTT | EC50 | MT-4 | IIIB |  | >12.5 µg/mL
NC(=O)c1ccn2c1CS[C@@H]2c1cccnc1 |  | EC50 | Monocytes/macrophages | DAS |  | 50 µM
CC(C)=CCN1Cc2cc(Cl)cc3[nH]c(=S)n(c23)C[C@@H]1C |  | EC50 | MT-4 |  | RT-D67N K70R T215Y K219Q | <0.4 µM
Oc1cc(O)c2c(c1)O[C@H](c1ccc(O)c(O)c1)[C@@H](O)C2 | cytopathic effect / MTT | EC50 | MT-4 | IIIB |  | >100 µg/mL

For reference, 5 entries again:

SMILES | read by | measure | cell line | strain | mutations | result
CCN1C/C(=C\c2ccc(O)c([N+](=O)[O-])c2)C(=O)/C(=C/c2ccc(O)c([N+](=O)[O-])c2)C1 | cytopathic effect / MTT | EC50 | MT-4 |  |  | >15 µM
Nc1nc(=O)n([C@@H]2C[Se][C@H](CO)O2)cc1F | RT activity | EC90 | PBMC | BRU(RT-M184V) | RT-M184V | >50 µM
Cc1ccnc2c1NC(=O)c1cccnc1N2C1CC1 | syncytia | EC50 | C8166 | IIIB |  | 0.0372 µM
O=c1[nH]cnc2c1ncn2[C@H]1CC[C@@H](CO)O1 | plaque count | EC50 | HELA/CD4 + HELA CD4+ | HXB2 |  | 3.18 µM
CCOCn1c(Cc2ccccc2)c(C(C)C)c(=O)[nH]c1=O | cytopathic effect / MTT | EC50 | MT-4 | IIIB | RT-K103N Y181C | >100 µM